Reference: US20250325672A1 (priority 2020, published 2025)

Key:
[1] = target: wild-type (WT) S1 domain of the SARS-COV-2 Spike Protein (ACROBiosystems, S1N-C82E8) (SARS-CoV-2), P0DTC2; experiment: FP direct binding
[2] = target: Biotinylated 2019-nCoV (COVID-19) S1 protein (16-685), His, Avitag (SARS-CoV-2), P0DTC2; experiment: SPR, Biacore T200, geomean
[3] = target: SARS-CoV-2 protein used in the SPR assay of Example 2 (not named); experiment: SPR
[4] = target: Biotinylated SARS-CoV-2 (COVID-19) S protein RBD, His, Avitag (SARS-CoV-2), P0DTC2; experiment: SPR, Biacore T200, geomean

ACPYVAGRGTCLLCA (modifications not checked) [BCY16322]
Kd [1]: 722 nM

ACASPDNPVCRFYCA (modifications not checked) [BCY16538]
Kd [1]: 229 nM

CASPDNPVCRFYC (modifications not checked) [BCY15576]
Kd [2]: 89.9 nM
pKD [3]: 6.88

CANHDNPVCRFYC (modifications not checked) [BCY16902]
Kd [2]: 24 nM

CANPDNPVCRFYC (modifications not checked) [BCY16903]
Kd [2]: 11.1 nM

CMNTDNPVCRFYC (modifications not checked) [BCY16908]
Kd [2]: 33.9 nM

CLNVDNPVCRFYC (modifications not checked) [BCY16909]
Kd [2]: 26.3 nM

CLNPDNPVCRFYC (modifications not checked) [BCY16910]
Kd [2]: 22.6 nM

CMNEDNPVCRFYC (modifications not checked) [BCY16916]
Kd [2]: 17.9 nM

CMNEANPVCRFYC (modifications not checked) [BCY16919]
Kd [2]: 20.8 nM

ACYNHANPVCRYYCA (modifications not checked) [BCY16545]
Kd [1]: 641 nM

CPYVAGRGTCLLC (modifications not checked) [BCY16926]
Kd [2]: 2470 nM

ACDWTCYFRPLPCA (modifications not checked) [BCY16933]
Kd [2]: 25.3 nM

CYNHANPVCRYYC (modifications not checked) [BCY16544]
Kd [1]: 921 nM

ACEDNDWVYCSTCA (modifications not checked) [BCY17543]
Kd [2]: 178 nM

ACYNHANPVCRYYCA (modifications not checked) [BCY15522]
Kd [1]: 370 nM

CRNPDNPVCRFYC (modifications not checked) [BCY16905]
pKD [3]: 7.98

CPYSPGQGTCLLC (modifications not checked) [BCY19537]
Kd [4]: 2650 nM

CPYQPGSGTCLLC (modifications not checked) [BCY19538]
Kd [4]: 2100 nM

CPYLAGTGTCLLC (modifications not checked) [BCY19543]
Kd [4]: 2940 nM

CPYAPGMGTCLLC (modifications not checked) [BCY19545]
Kd [4]: 1570 nM

ACPYVAGRATCLLCA (modifications not checked) [BCY16318]
Kd [1]: 602 nM
